Measured data: PubChem BioAssay AID1259414 (Drosophila RNAi Screening Center, 2018)

Test: 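Genome-wide screen for host control of endosymbiont load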 (primary screen)
Cell system: Drosophila JW18 cells infected with Wolbachia
Reagent: long dsRNA against Drosophila genes, 0.25 µg dsRNA per well of a 384-well plate
Duration: 5 days
Treatment: cells persistently infected with Wolbachia before knock-down; no added drug
Measured: 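Automated imaging of bacterial rRNA staining divided by host cell count, reported as plate-normalised robust z-score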
Direction: Wolbachia per cell robust z: higher = more Wolbachia per host cell than the plate typical
Rule for the call: 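Active if absolute robust z reaches 1.5 in two or more of three replicates, leaving out multi- or no-target dsRNAs, genes unexpressed in JW18 and A1 wells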
The screen tested about 24,000 reagents; shown is an unselected part of those that have a named target and a result. In the full data, about 1,210 (5%) are marked active. 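Inactive calls also include excluded dsRNAs with several or no targets, genes unexpressed in JW18, and well A1, regardless of score.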 Names joined by + are all predicted targets of the reagent.

With knock-down of CSN4 [DRSC07350], the screen gave Wolbachia per cell robust z, rep 1 = 1.45; Wolbachia per cell robust z, rep 2 = 0.498; Wolbachia per cell robust z, rep 3 = -1.19; inactive.
For CG2962 [DRSC18247] the deposit lists Wolbachia per cell robust z, rep 1 = 0.113; Wolbachia per cell robust z, rep 2 = 0.429; Wolbachia per cell robust z, rep 3 = 0.381; inactive.
With knock-down of CG2962 [DRSC27023] the results were Wolbachia per cell robust z, rep 1 = -1.11; Wolbachia per cell robust z, rep 2 = 1.71; Wolbachia per cell robust z, rep 3 = -0.228; inactive.
Knock-down of lncRNA:CR42790 [DRSC41430] gave: Wolbachia per cell robust z, rep 1 = 0.924; Wolbachia per cell robust z, rep 2 = 1.06; Wolbachia per cell robust z, rep 3 = -0.328; inactive.
CG5897 [DRSC10555] gave Wolbachia per cell robust z, rep 1 = 1.2; Wolbachia per cell robust z, rep 2 = 0.731; Wolbachia per cell robust z, rep 3 = -6.1; inactive.
After knock-down of Rab4 + CG42239 [DRSC05667] the results were Wolbachia per cell robust z, rep 1 = 1.01; Wolbachia per cell robust z, rep 2 = 0.2; Wolbachia per cell robust z, rep 3 = 0.432; inactive.
Depletion of Cpr67Fa1 [DRSC10932] resulted in: Wolbachia per cell robust z, rep 1 = -0.143; Wolbachia per cell robust z, rep 2 = -0.379; Wolbachia per cell robust z, rep 3 = -0.657; inactive.
Against B52 [DRSC14121], the values are Wolbachia per cell robust z, rep 1 = 0.25; Wolbachia per cell robust z, rep 2 = 0.914; Wolbachia per cell robust z, rep 3 = 0.436; inactive.
B52 [DRSC25482] gave Wolbachia per cell robust z, rep 1 = 1.1; Wolbachia per cell robust z, rep 2 = 1.75; Wolbachia per cell robust z, rep 3 = 0.913; inactive.
B52 [DRSC40719] gave Wolbachia per cell robust z, rep 1 = 0.666; Wolbachia per cell robust z, rep 2 = 1.5; Wolbachia per cell robust z, rep 3 = 0.674; inactive.
For Yp3 [DRSC20302], the values are Wolbachia per cell robust z, rep 1 = -0.825; Wolbachia per cell robust z, rep 2 = 1.22; Wolbachia per cell robust z, rep 3 = 0.676; inactive.
Yp3 [DRSC25550] gave Wolbachia per cell robust z, rep 1 = 0.317; Wolbachia per cell robust z, rep 2 = 1.19; Wolbachia per cell robust z, rep 3 = -0.185; inactive.
Depletion of CG15172 [DRSC02473] came out at: Wolbachia per cell robust z, rep 1 = -9.18; Wolbachia per cell robust z, rep 2 = 0.579; Wolbachia per cell robust z, rep 3 = 0.121; inactive.
Knock-down of CG15172 [DRSC27372] resulted in: Wolbachia per cell robust z, rep 1 = 0.556; Wolbachia per cell robust z, rep 2 = 0.843; Wolbachia per cell robust z, rep 3 = 0.664; inactive.
CG14689 [DRSC14912] gave Wolbachia per cell robust z, rep 1 = -0.664; Wolbachia per cell robust z, rep 2 = -2.41; Wolbachia per cell robust z, rep 3 = -1.09; inactive.
Against CG14689 [DRSC28117], the values are Wolbachia per cell robust z, rep 1 = 0.4; Wolbachia per cell robust z, rep 2 = -2.73; Wolbachia per cell robust z, rep 3 = -1.19; inactive.
Lgr1 [DRSC16675] gave Wolbachia per cell robust z, rep 1 = 0.452; Wolbachia per cell robust z, rep 2 = -0.742; Wolbachia per cell robust z, rep 3 = -1.41; inactive.
CG9970 [DRSC08644] scored Wolbachia per cell robust z, rep 1 = -0.758; Wolbachia per cell robust z, rep 2 = -1.03; Wolbachia per cell robust z, rep 3 = -0.406; inactive.
Against Sec16 [DRSC19788], the entry reads Wolbachia per cell robust z, rep 1 = 0.00911; Wolbachia per cell robust z, rep 2 = 1.07; Wolbachia per cell robust z, rep 3 = 0.938; inactive.
With knock-down of Hnf4 [DRSC03344], the screen gave Wolbachia per cell robust z, rep 1 = -0.851; Wolbachia per cell robust z, rep 2 = 0.603; Wolbachia per cell robust z, rep 3 = 0.177; inactive.
Depletion of Hnf4 [DRSC26864] resulted in: Wolbachia per cell robust z, rep 1 = 0.395; Wolbachia per cell robust z, rep 2 = 0.85; Wolbachia per cell robust z, rep 3 = -6.4; inactive.
After knock-down of Hakai [DRSC02031] the results were Wolbachia per cell robust z, rep 1 = -0.485; Wolbachia per cell robust z, rep 2 = -0.523; Wolbachia per cell robust z, rep 3 = 0.242; inactive.
Knock-down of Cpr11A [DRSC19861] resulted in: Wolbachia per cell robust z, rep 1 = -2.08; Wolbachia per cell robust z, rep 2 = 0.731; Wolbachia per cell robust z, rep 3 = -0.0602; inactive.
Cpr11A [DRSC26786] showed Wolbachia per cell robust z, rep 1 = 0.189; Wolbachia per cell robust z, rep 2 = -1.32; Wolbachia per cell robust z, rep 3 = 0.342; inactive.
